Article PMC5244253, “Phloretin Attenuates Listeria monocytogenes Virulence Both In vitro and In vivo by Simultaneously Targeting Listeriolysin O and Sortase A” (Frontiers in Cellular and Infection Microbiology, 2017)

Protein sequences, listed by entry. Tags and fused reporters are not part of them. Residues count along the entry.
UniProt Q8Y8H5, 71-222 V201A: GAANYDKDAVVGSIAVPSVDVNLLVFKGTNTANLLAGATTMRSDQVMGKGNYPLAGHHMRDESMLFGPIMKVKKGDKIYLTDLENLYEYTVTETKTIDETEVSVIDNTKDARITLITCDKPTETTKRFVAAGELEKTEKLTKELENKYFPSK
UniProt Q8Y8H5, 71-222 T162A: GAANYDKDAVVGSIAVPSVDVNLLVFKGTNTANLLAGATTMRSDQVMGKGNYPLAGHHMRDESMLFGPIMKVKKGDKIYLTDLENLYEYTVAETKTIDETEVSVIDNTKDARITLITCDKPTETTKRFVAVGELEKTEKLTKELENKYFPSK
UniProt Q8Y8H5, 71-222 I175A: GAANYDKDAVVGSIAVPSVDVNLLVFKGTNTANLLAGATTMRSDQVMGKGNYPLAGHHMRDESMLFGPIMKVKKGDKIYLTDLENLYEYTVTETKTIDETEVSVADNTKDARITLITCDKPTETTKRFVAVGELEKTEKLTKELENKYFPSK

How the values were obtained:
[1] = tested on: L. monocytogenes escape from internalization vacuoles in Caco-2 cells; assay: Bacterial escape from internalization vacuoles into cytoplasm (confocal microscopy); details: EGDe strain, phloretin 58.34 μM, with or without pre-incubation; 3 h or 5 h post-infection; F-actin colocalization
V129A = V129A (Listeria monocytogenes serovar 1/2a, UniProt Q8Y8H5, V201A); details: phloretin 14.59 or 58.34 μM, compared with WT-SrtA
SrtA T90A = SrtA T90A (Listeria monocytogenes serovar 1/2a, UniProt Q8Y8H5, T162A); details: phloretin 14.59 or 58.34 μM, compared with WT-SrtA
SrtA I103A = SrtA I103A (Listeria monocytogenes serovar 1/2a, UniProt Q8Y8H5, I175A); details: phloretin 14.59 or 58.34 μM, compared with WT-SrtA

In the case of O=C(CCc1ccc(O)cc1)c1c(O)cc(O)cc1O [phloretin], the “bacterial escape from vacuoles into cytoplasm” value [1] is reported as “significantly decreased”, the “inhibitory effect against SrtA mutant activity” value (shortened to “inhibitory effect”) (V129A) is reported as “much lower than that against WT-SrtA” and the “inhibitory effect” value (SrtA T90A) is reported as “much lower than that against WT-SrtA”. For the same compound, the “inhibitory effect” value (SrtA I103A) was “much lower than that against WT-SrtA”.
